According to patent US20240279279A1, “PROTEIN-DERIVED PEPTIDE FOR IMPROVING IMMUNITY AGAINST 2019 NOVEL CORONAVIRUS (2019-nCoV) AND USE THEREOF” (ZHEJIANG A&F UNIVERSITY, priority 2023, published 2024):
Where “and” joins values, the source holds several entries; their conditions need not be identical. Identical values can stand only once. Like-named read-outs stand apart in the source and are kept apart here.

Assays:
[1] = thermal stability by RP-HPLC; type: physicochemical; settings: 100 μmol/L in water, 20, 40, 60, 80, 100° C. for 2 h
Procedure: WWNLN (obtained by solid-phase synthesis from Jiangsu Jitai Peptide Technology Co., Ltd.) was diluted with distilled water into a 100 μmol/L solution, and solution that had not been treated at different temperatures was used as a blank control. The diluted WWNLN sample solution was placed in water bath conditions of 20, 40, 60, 80, and 100° C. for 2 h. The blank control and WWNLN sample solutions treated at different temperatures were injected into the RP-HPLC device for analysis through a filter membrane with a pore size of 0.22 μm. Detection wavelength was: 220 nm; column temperature was: 25° C. Mobile phase A was: lv/v % TFA+99 v/v % acetonitrile; mobile phase B was: lv/v % TFA+99 v/v % water. Elution conditions: 0 min to 25 min, 72 v/v % to 47 v/v % B (gradient elution); 25 min, 47 v/v % B (isocratic elution); 25 min to 25.1 min, 47 v/v % to 0 v/v % B (gradient elution), the column was eluted at a flow rate of 1.0 mL/min. Whether WWNLN degraded at different temperatures were determined based on the peak area and peak elution time of the liquid phase spectrum.

[2] = target: T1, 2019-nCoV M-pro (Severe acute respiratory syndrome coronavirus 2, UniProt P0DTD1); test: 2019-nCoV M-pro inhibition mode experiment (Km, Vmax trends); type: biochemical
T1 construct: 2019 novel coronavirus main protease (2019-nCoV M-pro)

[3] = acid-base stability by RP-HPLC; type: physicochemical; settings: 100 μmol/L, pH 2, 4, 6, 8, 10, 37° C. for 2 h
Procedure: WWNLN (obtained by solid-phase synthesis from Jiangsu Jitai Peptide Technology Co., Ltd.) was diluted with distilled water into a 100 μmol/L solution, and solution that had not been treated at different pH values was used as a blank control. The pH value of the diluted WWNLN sample solution was adjusted to 2, 4, 6, 8, and 10, respectively using 1 mol/L hydrochloric acid and 1 mol/L sodium hydroxide. The blank control and WWNLN sample solutions treated with different pH levels were placed in a 37° C. water bath for 2 h. The blank control and WWNLN solutions treated at different pH values were injected into the RP-HPLC device for analysis through a filter membrane with a pore size of 0.22 m. Detection wavelength was: 220 nm; column temperature was: 25° C. Mobile phase A was: lv/v % TFA+99 v/v % acetonitrile; mobile phase B was: lv/v % TFA+99 v/v % water. Elution conditions: 0 min to 25 min, 72 v/v % to 47 v/v % B (gradient elution); 25 min, 47 v/v % B (isocratic elution); and 25 min to 25.1 min, 47 v/v % to 0 v/v % B (gradient elution), the column was eluted at a flow rate of 1.0 mL/min. Whether WWNLN degraded at different pH values was determined based on the peak area and peak elution time of the liquid phase spectrum.

[4] = tested on: Vero-E6 cells; test: Vero-E6 cytotoxicity, MTT; type: cell-based; settings: 0 μM to 400 μM, 24 h
Procedure: (§1) The solutions (0, 25, 50, 100, 200, 400 μM; DMEM medium, Gibco Company) with different concentrations of WWNLN (obtained by solid-phase synthesis from Jiangsu Jitai Peptide Technology Co., Ltd.) and Vero-E6 cells (10^5 cells/mL) were added in a 96-well plate, and incubated statically at 37° C. for 24 h in an incubator; the 96-well plate was taken out from the incubator, added with MTT solution to each well at a final concentration of 0.5 mg/mL, where the MTT solution was prepared using phosphate buffer (NaCl: 137 mM, KCl: 2.7 mM, Na2HPO4: 10 mM, KH2PO4: 2 mM, pH=7.2-7.4). The cells were cultured statically at 37° C. for 4 h in a CO2 incubator (CO2 concentration: 5 v/v %). After centrifugation at 1,000 rpm for 5 min, the supernatant was removed, 150 μL of DMSO was added to each well, and placed on a shaker at 70 rpm for 10 min. The absorbance in each well was read using a microplate reader at a wavelength of 490 nm, and the cell viability was calculated using Graphpad Prism 8.0.1. In this example, all operations were conducted in the dark after adding the MTT solution.

[5] = Vero-E6 cytotoxicity, MTT; type: cell-based; settings: Vero-E6 cells, read-out: Cell viability
Procedure: as §1

[6] = simulated gastrointestinal digestion stability (pepsin, trypsin) by RP-HPLC; type: in vitro ADME
Procedure: WWNLN (obtained by solid-phase synthesis from Jiangsu Jitai Peptide Technology Co., Ltd.) was diluted into a 100 μmol/L solution with hydrochloric acid with a pH value of 2. 0.016 g of pepsin (Beijing Solarbio Science & Technology Co., Ltd., P8390, pepsin activity 1 g: 3,000 U) was added to 1 mL of the diluted WWNLN sample solution, allowed to stand in a 37° C. water bath for 2 h, and samples were collected every 1 h and placed at 4° C. for later use. After 2 h, the WWNLN sample solution was taken out, and 1 mol/L sodium hydroxide was added to adjust the pH value of the WWNLN sample solution after pepsin enzymatic hydrolysis to 7, and 0.010 g trypsin (Beijing Solarbio Science & Technology Co., Ltd., T8150, pepsin activity 1 g: 250 U) was added, allowed to stand in a 37° C. water bath for 2 h, and samples were collected every 1 h and placed at 4° C. for later use. The WWNLN sample solution was injected into the RP-HPLC device for analysis through a filter membrane with a pore size of 0.22 μm. The elution conditions were the same as those in Example 4, part (1). Whether WWNLN was degraded after being digested by pepsin and trypsin was determined based on the peak area and peak elution time of the liquid phase spectrum.

[7] = target: T1, 2019-nCoV M-pro; test: 2019-nCoV M-pro inhibitory activity, fluorescent decapeptide substrate; type: biochemical; settings: for Inhibition rate: peptide concentration not printed (1.0-20.0 μM tested), 30° C.
[8] = inhibitor 20 μM, Vmax decreased

## CC(C)C[C@H](NC(=O)[C@H](CC(N)=O)NC(=O)[C@H](Cc1c[nH]c2ccccc12)NC(=O)[C@@H](N)Cc1c[nH]c2ccccc12)C(=O)N[C@@H](CC(N)=O)C(=O)O [WWNLN, Trp-Trp-Asn-Leu-Asn]
[1]
  thermal stability (degradation by peak area and elution time): had not been degraded
[2]
  Inhibition mode: competitive inhibition and 0-10 μM: competitive inhibition
[2]; [8]
  Inhibition mode: non-competitive inhibition and 20 μM: non-competitive inhibition
[3]
  acid-base stability (degradation by peak area and elution time): had not been significantly degraded
[4]
  cytotoxicity to Vero-E6 cells: not toxic
[5]; Vero-E6, 25 μM
  viability at 24 h, 25 µM: 99.6 ± 1.58%
[5]; Vero-E6, 50 μM
  viability at 24 h, 50 µM: 99.3 ± 2.02%
[5]; Vero-E6, 100 μM
  viability at 24 h, 100 µM: 98.9 ± 1.99%
[5]; Vero-E6, 200 μM
  viability at 24 h, 200 µM: 98.4 ± 2.15%
[5]; Vero-E6, 400 μM
  viability at 24 h, 400 µM: 98 ± 2.41%
[6]; pepsin pH 2, 37° C., 1 h and 2 h
  degradation after pepsin digestion: slightly degraded
[6]; then trypsin (simulated gastrointestinal digestion), digestion with pepsin and trypsin for 2 h, peak area comparison, read-out: retention rate after digestion
  remaining at 2 h, 100 μmol/L: 87.5%
[7]; 20 μM substrate, 2 nM M-pro, nonlinear fitting
  IC50: 6.69 µM
[7]; 20 μM substrate, 2 nM M-pro
  Inhibition rate: 74.13%

## NC(=O)C[C@H](NC(=O)[C@H](Cc1ccc(O)cc1)NC(=O)[C@H](CC(N)=O)NC(=O)[C@H](Cc1c[nH]c2ccccc12)NC(=O)[C@@H](N)Cc1c[nH]c2ccccc12)C(=O)O [WWNYN, Trp-Trp-Asn-Tyr-Asn]
[2]
  Inhibition mode: competitive inhibition and 0-10 μM: competitive inhibition
[2]; [8]
  Inhibition mode: non-competitive inhibition and 20 μM: non-competitive inhibition
[7]; 20 μM substrate, 2 nM M-pro
  Inhibition rate: 59.36%
[7]; unit printed as M in text
  IC50: 19.9 µM
